Compound potency records, mixed from different reports. Data source: NIAID ChemDB in PubChem.

All rows: whole-cell or culture tests; agent: Candida albicans

A number after MIC or MFC names an inhibition level or a share of isolates. Lines come from different laboratories, so protocols vary. ECn is the concentration giving n% inhibition of infection, replication or growth. Blank or dashed fields: not listed here.

structure | strain or isolate | method | read-out | result
Brc1ccc(CO/N=C2\c3ccccc3OCC2n2cncn2)cc1 | ATCC 10231 | - | MFC | 64 µg/mL
O=C(Nc1cccc(F)c1)c1ccccc1O | ATCC 44859 | - | MIC | 62.5 µM
COc1ccc(C(Cc2ccccc2Cl)n2ccnc2)cc1 | 34 strains | - | MIC50 | 256 µg/mL
CCC(C)n1ncn(-c2ccc(N3CCN(c4ccc(OC[C@H]5CO[C@](Cn6cncn6)(c6ccc(Cl)cc6Cl)O5)cc4)CC3)cc2)c1=O | 19 strains | - | MIC90 | 1 µg/mL
Nc1ncccc1-c1cc(Cc2ccc(COc3ccccn3)cc2)no1 | 373 | broth dilution | MIC | 0.015 µg/mL
C=C(CN1CCN(C)CC1)C(=O)c1ccc(Cl)cc1 | - | - | EC50 | 1.48 µM
CC1CC(=O)N(c2ccc(F)cc2)C1=O | ATCC 10231 | broth dilution / turbidity | MIC | 250 µg/mL
CCCCCCCCOC[n+]1cccc(NCn2cnc3ccccc32)c1 | ATCC 10231 | - | MIC | 1242 µM
CCC(c1ccc(Cl)cc1)C(c1ccc(OC)cc1)n1ccnc1 | 28 strains | - | MIC50 | 16 µg/mL
O=C(Nc1ccc(C(F)(F)F)cc1)c1ncccc1O | ATCC 44859 | - | MIC | 250 µM
CCCCCOc1ccc(-c2ccc(-c3ccc(C(=O)N[C@H]4CCCNC(=O)[C@@H]5C[C@H](NC(=O)OC)CN5C(=O)[C@H]([C@@H](C)O)NC(=O)[C@H](CCc5ccc(O)cc5)NC(=O)[C@@H]5C[C@@H](O)CN5C(=O)[C@H]([C@@H](C)O)NC4=O)cc3)cc2)cc1 | ATCC 38247 | - | MIC | 1.25 µg/mL
Clc1ccc(C(c2ccccc2)N2CCN(CCn3cncn3)CC2)cc1 | - | broth dilution | MFC | 32 µg/mL
CCCCCN[C@H]1CCCNC(=O)[C@@H]2C[C@H](N)CN2C(=O)[C@H]([C@@H](C)O)NC(=O)[C@H](CCc2ccc(O)cc2)NC(=O)[C@@H]2C[C@@H](O)CN2C(=O)[C@H]([C@@H](C)O)NC1=O | ATCC 62376 | - | MIC | 0.2 µg/mL
C=C(CN1CCN(C)CC1)C(=O)c1ccccc1 | - | - | MIC | 128 µg/mL
Fc1ccc(CCCCn2c3c(c4cc(F)ccc42)CNCC3)cc1 | 1378-17 | - | MIC | 0.06 µg/mL
CC1CC(=O)N(c2ccc(Cl)cc2)C1=O | ATCC 10231 | broth dilution / turbidity | MIC | 250 µg/mL
CCCCCCCCCCCCOC[n+]1cccc(NCn2nnc3ccccc32)c1 | ATCC 10231 | - | MBC | 272 µM
C[C@@H](N1CCN(Cc2cn(Cc3ccc(F)cc3)c3c(Cl)cccc23)CC1)[C@](O)(Cn1cncn1)c1ccc(F)cc1F | ATCC 36082 | resazurin | MIC80 | 4 µg/mL
COc1ccc(C(Cc2ccc(Cl)cc2)n2ccnc2)cc1 | 34 strains | - | MIC50 | 8 µg/mL
CC1C(=O)N(c2ccccc2)C(=O)C1C | ATCC 10231 | broth dilution / turbidity | MIC | 125 µg/mL
CCCCCCCCCCCCOC[n+]1cccc(NCn2cnc3ccccc32)c1 | ATCC 10231 | - | MIC | 17.5 µM
CC(O)Cn1cc(CN2CCN([C@H](C)[C@](O)(Cn3cncn3)c3ccc(F)cc3F)CC2)c2cccc(Cl)c21 | ATCC MYA-1003 | resazurin | MIC80 | 64 µg/mL
CCCCCOc1ccc(-c2ccc(-c3ccc(C(=O)N[C@H]4C[C@@H](O)[C@@H](O)NC(=O)[C@@H]5[C@@H](O)[C@@H](C)CN5C(=O)[C@H]([C@H](C)O)NC(=O)[C@H]([C@H](O)[C@@H](O)c5ccc(O)cc5)NC(=O)[C@@H]5C[C@@H](O)CN5C(=O)[C@H]([C@H](C)O)NC4=O)cc3)cc2)cc1 | 10 strains (fluconazole- itraconazole-susceptible) | - | MIC90 | 0.06 µg/mL
CCCCCOCn1c[n+](CNC(=O)c2cccnc2)c2ccccc21 | ATCC 10231 | - | MIC | 1287 µM
O=C(Nc1ccccc1)c1ccccc1O | ATCC 44859 | - | MIC | 250 µM
Fc1ccccc1CO/N=C1/c2ccccc2OCC1n1cncn1 | ATCC 10231 | - | MIC | >64 µg/mL
C[C@@H](N1CCN(Cc2c[nH]c3ccccc23)CC1)[C@](O)(Cn1cncn1)c1ccc(F)cc1F | ATCC 36082 | resazurin | MIC80 | 0.5 µg/mL
O=C(Nc1ccc(Cl)c(Cl)c1)c1ncccc1O | ATCC 44859 | - | MIC | >250 µM
C[C@@H](c1nc(-c2ccc(C#N)cc2)cs1)[C@](O)(Cn1cncn1)c1ccc(F)cc1F | - | - | MIC90 | 0.025 µg/mL
COc1ccc(C(Cc2ccc([N+](=O)[O-])cc2)n2ccnc2)cc1 | 34 strains | - | Geometric mean MIC | >256 µg/mL
O=C(c1ccccc1)C(c1ccccc1)n1cnc2ccccc21 | - | agar | MIC90 | 64 µg/mL
COc1ccc(C(Cc2ccccc2N)n2ccnc2)cc1 | 34 strains | - | Geometric mean MIC | 69.26 µg/mL
CCCCCOc1ccc(-c2cc(-c3ccc(C(=O)N[C@H]4C[C@@H](O)[C@@H](O)NC(=O)[C@@H]5[C@@H](O)[C@@H](C)CN5C(=O)[C@H]([C@H](O)CC(N)=O)NC(=O)[C@H]([C@H](O)[C@@H](O)c5ccc(O)c(OS(=O)(=O)O)c5)NC(=O)[C@@H]5C[C@@H](O)CN5C(=O)[C@H]([C@@H](C)O)NC4=O)cc3)no2)cc1 | Fluconazole-resistant 4 isolates pooled | - | MFC90 | 0.5 µg/mL
O=C(Nc1cccc(F)c1)c1ncccc1S | ATCC 44859 | - | MIC | >125 µM
CCCCCCCCCCCCN[C@H]1CCCNC(=O)[C@@H]2C[C@H](N)CN2C(=O)[C@H]([C@@H](C)O)NC(=O)[C@H](CCc2ccc(O)cc2)NC(=O)[C@@H]2C[C@@H](O)CN2C(=O)[C@H]([C@@H](C)O)NC1=O | ATCC 38247 | - | MIC | 1.56 µg/mL
CC[C@@H](c1ccc(Cl)cc1)[C@@H](c1ccc(OC)cc1)n1cnnc1 | 28 strains | - | MIC90 | >256 µg/mL
CC1C(=O)N(CCc2ccccc2)C(=O)C1C | ATCC 10231 | broth dilution / turbidity | MIC | 125 µg/mL
CCCCCCCC(=O)N[C@H]1C[C@H]2C(=O)NCCC[C@H](NC(=O)c3ccc(-c4ccc(-c5ccc(OCCCCC)cc5)cc4)cc3)C(=O)N[C@@H]([C@@H](C)O)C(=O)N3C[C@H](O)C[C@H]3C(=O)N[C@@H](CCc3ccc(O)cc3)C(=O)N[C@@H]([C@@H](C)O)C(=O)N2C1 | ATCC 38247 | - | MIC | >100 µg/mL
COc1ccc(C(Cc2c(Cl)cccc2Cl)n2ccnc2)cc1 | 34 strains | - | Geometric mean MIC | 28.48 µg/mL
COc1ccc(C(C(Cc2ccc(Cl)cc2Cl)c2ccc(Cl)cc2)n2cncn2)cc1 | 28 strains | - | MIC90 | 256 µg/mL
OC(Cn1cncn1)(Cn1cncn1)c1ccc(F)cc1F | - | - | MIC90 | 0.78 µg/mL
CC[C@@H]([C@H](C)O)n1ncn(-c2ccc(N3CCN(c4ccc(OC[C@@H]5CO[C@@](Cn6cncn6)(c6ccc(F)cc6F)C5)cc4)CC3)cc2)c1=O | - | broth dilution | MIC90 | 0.5 µg/mL
O=C(Nc1cccc(Cl)c1)c1ccccc1O | ATCC 44859 | - | MIC | >62.5 µM
C=C(CN1CCOCC1)C(=O)c1ccc(Cl)cc1 | - | - | MIC | 32 µg/mL
CCC(c1ccc(OC)cc1)C(c1ccc(OC)cc1)n1ccnc1 | 28 strains | - | MIC90 | >256 µg/mL
COc1ccc(C(Cc2ccccc2-n2cccc2)n2ccnc2)cc1 | 34 strains | - | Geometric mean MIC | 19.85 µg/mL
COc1ccc(C(O)Cc2ccc(Cl)cc2)cc1 | 28 strains | - | EC50 | <256 µg/mL
COc1ccc(C(Cc2ccccc2F)n2ccnc2)cc1 | 34 strains | - | Geometric mean MIC | 143.8 µg/mL
Clc1ccc(C(c2ccccc2)n2cnc3ccccc32)cc1 | - | broth dilution | MFC | >256 µg/mL
Fc1ccc(CO/N=C2/c3ccccc3OCC2n2cncn2)cc1 | ATCC 10231 | - | MFC | >64 µg/mL
Clc1ccc(C(c2ccccc2)N2CCN(CCn3ccnc3)CC2)cc1 | - | broth dilution | MFC | >256 µg/mL
COc1ccc(C(Cc2ccc(F)cc2)n2ccnc2)cc1 | 34 strains | - | MIC50 | 64 µg/mL
CCCCCOc1ccc(-c2ccc(-c3ccc(C(=O)N[C@H]4CCCNC(=O)[C@@H]5C[C@H](N)CN5C(=O)[C@H](CCCN)NC(=O)C(CCc5ccc(O)cc5)NC(=O)[C@@H]5C[C@@H](O)CN5C(=O)[C@H]([C@@H](C)O)NC4=O)cc3)cc2)cc1 | ATCC 62376 | - | MIC | 0.2 µg/mL
Cc1c(O)cccc1C(=O)N[C@@H](CSc1ccccc1)[C@H](O)CN1C[C@H]2CCCC[C@H]2C[C@H]1C(=O)NC(C)(C)C | I42A | - | MIC | 64 µg/mL
CCCCCOc1ccc(-c2ccc(-c3ccc(C(=O)N[C@H]4CCCNC(=O)[C@@H]5C[C@H](O)CN5C(=O)[C@H]([C@@H](C)O)NC(=O)[C@H](CCc5ccc(O)cc5)NC(=O)[C@@H]5C[C@@H](O)CN5C(=O)[C@H]([C@@H](C)O)NC4=O)cc3)cc2)cc1 | ATCC 38247 | - | MIC | 1.56 µg/mL
CCCCCCCOC[n+]1cccc(NCn2nnc3ccccc32)c1 | ATCC 10231 | - | MIC | >1284 µM
C[C@@H](N1CCN(Cc2cn(Cc3ccc(F)cc3F)c3c(F)cccc23)CC1)[C@](O)(Cn1cncn1)c1ccc(F)cc1F | ATCC 36082 | resazurin | MIC80 | 0.125 µg/mL
COc1ccc(C(C(Cc2ccc(Cl)cc2Cl)c2ccc(Cl)cc2)n2ccnc2)cc1 | 28 strains | - | MIC50 | 4 µg/mL
C[C@@H](N1CCN(Cc2cn(Cc3ccc(Cl)cc3Cl)c3ccc(C#N)cc23)CC1)[C@](O)(Cn1cncn1)c1ccc(F)cc1F | ATCC 36082 | resazurin | MIC80 | 0.25 µg/mL
Clc1ccc(CO/N=C2/c3ccccc3OCC2n2cnnc2)c(Cl)c1 | ATCC 10231 | - | MIC | 64 µg/mL
C=C(CN1CCOCC1)C(=O)c1ccccc1 | - | - | EC50 | 1.94 µM

Repeating the final 4 entries:

{"structure": "COc1ccc(C(C(Cc2ccc(Cl)cc2Cl)c2ccc(Cl)cc2)n2ccnc2)cc1", "strain or isolate": "28 strains", "read-out": "MIC50", "result": "4 µg/mL"}
{"structure": "C[C@@H](N1CCN(Cc2cn(Cc3ccc(Cl)cc3Cl)c3ccc(C#N)cc23)CC1)[C@](O)(Cn1cncn1)c1ccc(F)cc1F", "strain or isolate": "ATCC 36082", "method": "resazurin", "read-out": "MIC80", "result": "0.25 µg/mL"}
{"structure": "Clc1ccc(CO/N=C2/c3ccccc3OCC2n2cnnc2)c(Cl)c1", "strain or isolate": "ATCC 10231", "read-out": "MIC", "result": "64 µg/mL"}
{"structure": "C=C(CN1CCOCC1)C(=O)c1ccccc1", "read-out": "EC50", "result": "1.94 µM"}